The test concerns the target neuraminidase-treated newborn rat brain membranes.

In the case of “soluble protein A/STX fusion (expression plasmid AX78) (from UniProt P02976) (enzyme)”, the transfer of sialic acid to acceptor (% increase in activity over background) amounted to 50.

For the origin of these results see US5962294A, “Compositions and methods for the identification and synthesis of sialyltransferases” (The Regents of the University of California, priority 1993, dated 1999).
